## Sequence variants of PSTVd loop 6 after infection

Source: Wu et al. 2024 (doi:10.1371/journal.ppat.1012142), supplementary data.

PSTVd intermediate strain, loop 6: wild type UGACCGCGAG, pool pattern UNNNCGNNNG; upper and lower strand joined, each 5' to 3', the first 5 letters being the upper strand, closing pairs included.

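Three N. benthamiana plants were inoculated with the whole mutant pool. Progeny were sequenced from the inoculated region (day 5), the margin of the inoculated leaf (day 10) and systemic leaves (day 12).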

Values are reads per thousand in the sample; higher means more abundant, 0 means not found. Each site shows the three plants. "Pool" is the share in the plasmid pool used as inoculum, on the same scale. The inoculated region was read from the minus strand, the other sites from the plus strand. Sequences that differ at fixed positions probably stem from PCR or sequencing errors, and defective variants can be carried along by functional ones. Samples held 36,220 to 57,551 reads, so the smallest values rest on one or two reads. For reference, wild type rose from 20.7 per thousand in the pool to 195, 198, 203 (inoculated region), 629, 591, 734 (leaf margin) and 942, 870, 868 (systemic leaves).

UAAACGAUAG (pool 0.183): inoculated region 0.712 / 0.808 / 0.627; leaf margin 0.0828 / 0.0757 / 0.186; systemic leaves 0.0359 / 0.0606 / 0.
UAAUCGACUG (pool 0.366): inoculated region 0.139 / 0.0719 / 0.0922; leaf margin 0 / 0 / 0; systemic leaves 0 / 0 / 0.
UAAUCGUAUG (pool 0.431): inoculated region 0.156 / 0.126 / 0.0738; leaf margin 0.304 / 0 / 0; systemic leaves 0 / 0 / 0.
UACCCGACUG (pool 0.314): inoculated region 0.0869 / 0.0898 / 0.0738; leaf margin 0 / 0 / 0.0232; systemic leaves 0 / 0 / 0.
UACUCGCGCG (pool 0.222): inoculated region 0.122 / 0.0898 / 0.0553; leaf margin 0.0276 / 0 / 0; systemic leaves 0 / 0 / 0.
UAUGCGCAGG (pool 0.157): inoculated region 0.122 / 0.0359 / 0.148; leaf margin 0 / 0 / 0; systemic leaves 0 / 0 / 0.
UCAACGACCG (pool 0.157): inoculated region 0.104 / 0.0719 / 0.0922; leaf margin 0 / 0 / 0; systemic leaves 0 / 0 / 0.
UCAUCGGCUG (pool 0.248): inoculated region 0.0695 / 0.0359 / 0.0922; leaf margin 0.0276 / 0 / 0; systemic leaves 0 / 0 / 0.
UCCACGCUCG (pool 0.196): inoculated region 0.122 / 0.0539 / 0; leaf margin 0 / 0 / 0; systemic leaves 0 / 0 / 0.
UCCCCGAUUG (pool 0.340): inoculated region 0.191 / 0.0539 / 0.0369; leaf margin 0 / 0.0504 / 0.0232; systemic leaves 0.0180 / 0 / 0.
UCCUCGAAGG (pool 0.144): inoculated region 0.122 / 0.162 / 0.0738; leaf margin 0 / 0 / 0; systemic leaves 0 / 0 / 0.
UCGACGUAUG (pool 0.340): inoculated region 0.139 / 0.108 / 0.129; leaf margin 0.304 / 0 / 0; systemic leaves 0 / 0 / 0.
UCGCCGGGAG (pool 0.196): inoculated region 0.191 / 0.108 / 0.0369; leaf margin 0 / 0 / 0; systemic leaves 0 / 0 / 0.
UCGUCGUGUG (pool 0.144): inoculated region 0.122 / 0.0359 / 0.0738; leaf margin 0 / 0 / 0; systemic leaves 0 / 0 / 0.
UCUCCGCAGG (pool 0.196): inoculated region 0.139 / 0.0719 / 0.129; leaf margin 0 / 0 / 0; systemic leaves 0 / 0 / 0.
UCUCCGGGAG (pool 0.144): inoculated region 0.0869 / 0.144 / 0.0369; leaf margin 0.0276 / 0 / 0; systemic leaves 0 / 0 / 0.
UCUUCACGAG (pool 0.0131): inoculated region 0.0174 / 0 / 0.0184; leaf margin 0 / 0.101 / 0; systemic leaves 0 / 0 / 0.
UCUUCGCGUG (pool 0.144): inoculated region 0.191 / 0.126 / 0.0738; leaf margin 0.0276 / 0.757 / 0.0232; systemic leaves 0 / 0 / 0.
UGACCGACAG (pool 0.327): inoculated region 0.382 / 0.216 / 0.387; leaf margin 0.276 / 0.429 / 0.0464; systemic leaves 0.0539 / 0.0404 / 0.144.
UGAUCGCUAG (pool 0.0784): inoculated region 0.174 / 0.0719 / 0.129; leaf margin 0 / 0 / 0; systemic leaves 0 / 0 / 0.
UGCACGCUGG (pool 0.131): inoculated region 0.104 / 0.0359 / 0.0553; leaf margin 0 / 0 / 0.0232; systemic leaves 0 / 0 / 0.
UGCGCGCAGG (pool 0.222): inoculated region 0.174 / 0.108 / 0.0553; leaf margin 0 / 0 / 0; systemic leaves 0 / 0 / 0.
UGUACGGAAG (pool 0.0784): inoculated region 0.730 / 0.772 / 0.682; leaf margin 0.110 / 0.101 / 0.0464; systemic leaves 0 / 0 / 0.
UGUCCGCCGG (pool 0.222): inoculated region 0.122 / 0.126 / 0.0553; leaf margin 0.0276 / 0 / 0.0232; systemic leaves 0 / 0 / 0.0205.
UGUGCGUCUG (pool 0.353): inoculated region 0.0869 / 0.0719 / 0.0553; leaf margin 0 / 0 / 0; systemic leaves 0 / 0 / 0.
UGUUCGCCCG (pool 0.261): inoculated region 0.104 / 0.0898 / 0.129; leaf margin 0 / 0 / 0; systemic leaves 0 / 0 / 0.
UUAUCGCCGG (pool 0.235): inoculated region 0.122 / 0.108 / 0.0369; leaf margin 0.0276 / 0 / 0; systemic leaves 0 / 0 / 0.
UUAUCGGGCG (pool 0.275): inoculated region 0.712 / 0.575 / 0.535; leaf margin 0.110 / 0.151 / 0.0928; systemic leaves 0 / 0 / 0.
UUCACGCAAG (pool 0.170): inoculated region 0.626 / 0.665 / 0.406; leaf margin 0 / 0.151 / 0.0464; systemic leaves 0 / 0 / 0.
UUCACGGAUG (pool 0.288): inoculated region 0.139 / 0.0719 / 0.111; leaf margin 0.0276 / 0 / 0; systemic leaves 0 / 0 / 0.
UUCGCGGCCG (pool 0.196): inoculated region 0.0348 / 0.0359 / 0.0922; leaf margin 0 / 0 / 0; systemic leaves 0 / 0 / 0.
UUCUCGAAAG (pool 0.144): inoculated region 0.122 / 0.0539 / 0.0553; leaf margin 0.0276 / 0 / 0.0232; systemic leaves 0 / 0 / 0.
UUCUCGGCCG (pool 0.248): inoculated region 0.0695 / 0.0719 / 0.0553; leaf margin 0 / 0 / 0.0232; systemic leaves 0 / 0 / 0.
UUGGCGACCG (pool 0.235): inoculated region 0.0695 / 0.126 / 0.111; leaf margin 0 / 0 / 0; systemic leaves 0 / 0 / 0.
UUUCCGGGAG (pool 0.144): inoculated region 0.122 / 0.198 / 0.0738; leaf margin 0 / 0 / 0.0696; systemic leaves 0 / 0 / 0.

5 of these entries, quoted again:

| sequence | pool | inoculated region | leaf margin | systemic leaves |
|---|---|---|---|---|
| UGAUCGCUAG | 0.0784 | 0.174 / 0.0719 / 0.129 | 0 / 0 / 0 | 0 / 0 / 0 |
| UUCUCGGCCG | 0.248 | 0.0695 / 0.0719 / 0.0553 | 0 / 0 / 0.0232 | 0 / 0 / 0 |
| UCCCCGAUUG | 0.340 | 0.191 / 0.0539 / 0.0369 | 0 / 0.0504 / 0.0232 | 0.0180 / 0 / 0 |
| UGUUCGCCCG | 0.261 | 0.104 / 0.0898 / 0.129 | 0 / 0 / 0 | 0 / 0 / 0 |
| UAAACGAUAG | 0.183 | 0.712 / 0.808 / 0.627 | 0.0828 / 0.0757 / 0.186 | 0.0359 / 0.0606 / 0 |